Pooled drug test results. Numbers come from NIAID ChemDB, via PubChem.

Common to all: tests in culture

MIC50, MIC90 and the like: level of inhibition, or share of isolates inhibited. Inhibition is in % at the dose shown (toxicity tests: loss of growth or viability). Neighbouring rows are from separate reports. Blank or dashed fields: not listed here. ECn: concentration that inhibits the pathogen or its effect by n%.

smiles	tested at	species	read-out	cells	read by	strain	result
CCOC(=O)c1c(C)nc(NCCCCNc2ccnc3cc(Cl)ccc23)nc1-c1ccc(F)cc1		Cryptococcus gattii	MIC99			L 27/01	32 µg/mL
CCO/N=C/c1ccc(OCCC2CCN(c3ccc(Cl)nn3)CC2)cc1		Rhinovirus	EC50	KB	neutral red	FO2-3607 (sialoprotein receptor group 87)	2.32 µM
Cc1cn([C@@H]2O[C@H](CO)[C@@H](O)[C@@H]2F)c(=O)nc1N	0.1 µg/mL	Varicella zoster virus	inhibition	HELF	plaque count	YS	100%
O=S(=O)([O-])c1cc(NS(=O)(=O)c2ccccc2)c2c(S(=O)(=O)[O-])cc(S(=O)(=O)[O-])cc2c1	10 µg/mL	Adenovirus	inhibition	Human embryonic lung cells	cytopathic effect	TYPE 3	60%
CCC(CC)[C@H](NC(C)=O)[C@@H]1[C@H](O)[C@@H](C(=O)O)C[C@H]1N=C(N)N		Influenza A virus	EC50	MDCK		Influenza A/Virginia/2/88R (H3N2)	<0.01 µM
Nc1ncnc2c1ncn2C=C1CC1CO		Human cytomegalovirus	EC50		plaque count	AD169	1.2 µM
C/C=C\[C@@H]1C[C@H](C(=O)O)N[C@H]1[C@@H](NC(C)=O)[C@](C)(CCC)OC		Influenza A virus	EC50	MDCK	plaque count	H1N1 isolate C23C	≤1.5 µg/mL
O=c1[nH]c(=O)n([C@H]2C[C@H](O)[C@@H](CO)O2)cc1/C=C/Br	0.01 µg/mL	Varicella zoster virus	inhibition	HELF	plaque count	HIRAI	100%
C=CCc1ccc(O)c(OC)c1		Candida tropicalis	MIC90		turbidity	321	500 µg/mL
Oc1cccc(C=Nc2ccccc2O)c1		Cryptococcus gattii	MIC99			135L/03	8 µg/mL
O=S(=O)([O-])c1ccc(O)c2ccccc12	10 µg/mL	Rhinovirus	inhibition	Human embryonic lung cells	cytopathic effect		63%
Oc1ccccc1N=Cc1ccc2c(c1)OCO2		Cryptococcus neoformans	MIC99			ATCC 24067	4 µg/mL
COc1cc(-c2ccc(N=Nc3ccc4c(S(=O)(=O)O)cc(S(=O)(=O)O)c(N)c4c3O)c(OC)c2)ccc1N=Nc1ccc2c(S(=O)(=O)O)cc(S(=O)(=O)O)c(N)c2c1O	50 µg/mL	Adenovirus	inhibition	Human embryonic lung cells	cytopathic effect	TYPE 3	0%
CCc1cn([C@@H]2O[C@H](CO)[C@@H](O)[C@@H]2O)c(=O)[nH]c1=O	10 µg/mL	Varicella zoster virus	inhibition	HELF	plaque count	OKA	0%
NS(=O)(=O)O	10 µg/mL	Rhinovirus	inhibition	Human embryonic lung cells	cytopathic effect		0%
CCOC(=O)/C=C/[C@H](C[C@@H]1CCNC1=O)NC(=O)[C@@H](CC(=O)[C@@H](NC(=O)c1cc(C)on1)C(C)C)Cc1ccc(F)cc1		Rhinovirus	EC50	OHIO HELA-I	cytopathic effect / visual reading	Isolate 15	0.01 µg/mL
NCS(=O)(=O)O	10 µg/mL	Herpes simplex virus	inhibition	Human conjunctiva cells	cytopathic effect		0%
CCOC(=O)c1c(C)nc(NCCCCNc2ccnc3cc(Cl)ccc23)nc1-c1ccccc1[N+](=O)[O-]		Cryptococcus gattii	MIC99			135L/03	8 µg/mL
O=C(Nc1c(S(=O)(=O)[O-])cc2cc(S(=O)(=O)[O-])cc(O)c2c1O)c1ccccc1	50 µg/mL	Adenovirus	inhibition	Human embryonic lung cells	cytopathic effect	TYPE 3	90%
O=c1[nH]c(=O)n([C@@H]2O[C@H](CO)[C@@H](O)[C@@H]2O)cc1/C=C/Br	0.001 µg/mL	Varicella zoster virus	inhibition	HELF	plaque count	Kawaguchi	100%
NCCS(=O)(=O)O	50 µg/mL	Adenovirus	inhibition	Human embryonic lung cells	cytopathic effect	TYPE 3	0%
C=Cc1cn([C@@H]2O[C@H](CO)[C@@H](O)[C@@H]2O)c(=O)[nH]c1=O	0.01 µg/mL	Varicella zoster virus	inhibition	HELF	plaque count	YS	0%

For reference, 3 entries again:

smiles | tested at | species | read-out | cells | read by | strain | result
CCO/N=C/c1ccc(OCCC2CCN(c3ccc(Cl)nn3)CC2)cc1 |  | Rhinovirus | EC50 | KB | neutral red | FO2-3607 (sialoprotein receptor group 87) | 2.32 µM
O=C(Nc1c(S(=O)(=O)[O-])cc2cc(S(=O)(=O)[O-])cc(O)c2c1O)c1ccccc1 | 50 µg/mL | Adenovirus | inhibition | Human embryonic lung cells | cytopathic effect | TYPE 3 | 90%
COc1cc(-c2ccc(N=Nc3ccc4c(S(=O)(=O)O)cc(S(=O)(=O)O)c(N)c4c3O)c(OC)c2)ccc1N=Nc1ccc2c(S(=O)(=O)O)cc(S(=O)(=O)O)c(N)c2c1O | 50 µg/mL | Adenovirus | inhibition | Human embryonic lung cells | cytopathic effect | TYPE 3 | 0%